Deep mutational scan of the Zika virus protease

Protein: NS2B and the protease part of NS3 of Zika virus strain MR766. Positions count along the chain below; NS2B spans 2-131 and NS3 starts at 132.
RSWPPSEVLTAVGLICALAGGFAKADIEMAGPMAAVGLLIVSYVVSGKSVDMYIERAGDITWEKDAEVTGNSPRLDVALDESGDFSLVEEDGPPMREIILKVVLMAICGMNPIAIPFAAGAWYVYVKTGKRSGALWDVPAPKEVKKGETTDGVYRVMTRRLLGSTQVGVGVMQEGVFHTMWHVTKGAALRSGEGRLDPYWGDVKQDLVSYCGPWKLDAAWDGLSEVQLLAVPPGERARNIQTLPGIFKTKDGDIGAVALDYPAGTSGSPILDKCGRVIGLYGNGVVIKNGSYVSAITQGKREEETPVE

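Mutant virus pools were grown in human Huh-7.5 cells. Deep sequencing gave the change in frequency of each mutant relative to wild type, averaged over three replicate libraries (two for positions 207-308). The study looked for pockets that tolerate few changes, as a guide for inhibitor design.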

Values are log2 effects on growth: 0 is wild type, lower means poorer growth.
Each entry names the wild-type residue, its position and the residue put in its place.
All changes here are to serine.

For R1S the result was -8.86. With W3S the assay gave -7.88. P4S read -6.95. With P5S the assay gave -0.77. E7S read -3.11. V8S read -2.00. L9S gave -4.40.

For T10S the result was -0.53. A11S read -0.42. V12S read -1.10. G13S gave -7.02. L14S gave -6.62. With I15S the assay gave -6.63. With C16S the assay gave -2.23.

A17S gave 0.03. L18S read -4.43. A19S read -1.81. For G20S the result was -0.96. For G21S the result was -0.73. F22S gave -1.29. A23S gave -0.71.

With K24S the assay gave -4.44. A25S read -2.72. For D26S the result was -0.36. With I27S the assay gave -3.15. E28S gave -2.90. With M29S the assay gave -0.78. For A30S the result was -1.54.

For G31S the result was -3.98. For P32S the result was -6.49. For M33S the result was -4.54. A34S gave 0.39. A35S read -5.16. V36S read -1.26. G37S gave -2.73.

L38S read -7.38. With L39S the assay gave -5.82. With I40S the assay gave -1.87. V41S read -4.21. With Y43S the assay gave -7.36. With V44S the assay gave -7.12. V45S read -7.13.

For G47S the result was -4.77. For K48S the result was -4.83. V50S read -2.70. D51S read -4.43. M52S gave -7.61. For Y53S the result was -6.81. I54S gave -7.68.

E55S gave -3.59. For R56S the result was -3.32. A57S gave -0.13. G58S read -2.37. D59S gave -3.14. With I60S the assay gave -8.11. T61S gave -0.24.

W62S gave -7.99. With E63S the assay gave -6.17. K64S read -0.38. For D65S the result was -6.67. For A66S the result was -5.82. E67S gave -5.45.

The region was split into three libraries (1-103, 104-206, 207-308).
Position 1 still belongs to NS2A. In the paper, -1 or higher counts as tolerated.
Six mutants with high scores were retested singly and none clearly outgrew wild type, so positive values are not proof of better growth.

Reference: Ni et al. 2025, doi:10.1038/s41467-025-63602-z.